From PMC6882465, “Towards discovery of new leishmanicidal scaffolds able to inhibit Leishmania GSK-3” (Journal of Enzyme Inhibition and Medicinal Chemistry, 2019) come the findings set out here.

Sequences of proteins named here, by UniProt entry; tags and fusion partners are left off. Residues count along the entry.
UniProt A6N857, 1-355: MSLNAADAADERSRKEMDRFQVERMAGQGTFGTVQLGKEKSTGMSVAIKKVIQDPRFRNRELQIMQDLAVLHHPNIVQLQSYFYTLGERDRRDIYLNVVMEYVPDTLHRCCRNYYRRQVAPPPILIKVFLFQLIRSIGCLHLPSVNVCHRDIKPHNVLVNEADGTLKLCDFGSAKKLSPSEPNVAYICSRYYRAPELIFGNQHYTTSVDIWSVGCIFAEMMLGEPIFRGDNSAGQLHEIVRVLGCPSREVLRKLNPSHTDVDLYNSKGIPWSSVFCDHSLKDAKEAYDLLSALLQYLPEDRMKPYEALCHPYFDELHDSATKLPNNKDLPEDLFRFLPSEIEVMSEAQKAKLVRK

Like-named read-outs stand apart in the source and are kept apart here.

Experiment [1] concerns L. infantum promastigotes. In words: Leishmanicidal assay on promastigotes (inhibition of MTT reduction). As to conditions: for antiparasitic activities (in words): promastigotes; for EC50: read-out: L. infantum promastigotes EC50, 72 h. The experiment is classed as cell-based, Leishmania infantum. The procedure:
Leishmania parasites were resuspended with the corresponding drug concentration at 2 × 10^6 parasites/mL (final concentration) in their respective growth media in 96 microwell plates (200 µL/well). The parasites were allowed to growth for 72 h at 26 °C for promastigotes and 96 h at 32 °C for axenic amastigotes. Afterwards, inhibition of proliferation was measured by the inhibition of MTT reduction by the parasites. […] MTT reduction was allowed to proceed for 2 h at the respective temperature, and the resulting formazan solubilised by addition of 50 µL/well of 10% SDS. Afterwards, the plate was read at 595 nm in a BioRad Microplate-reader, model 680. Samples were made by triplicate and assays were repeated at least twice.
A general note: Tetrazolium dyes change colour on reduction, which living cells bring about.

Experiment [2] deals with L. pifanoi axenic amastigotes. Nature of the experiment: Leishmanicidal assay on axenic amastigotes (inhibition of MTT reduction). The experiment is classed as cell-based, Leishmania pifanoi. As to conditions: for antiparasitic activities (in words): axenic amastigotes; for EC50: read-out: L. pifanoi amast. ax EC50, 96 h.
The target in another experiment is LdGSK-3 (Leishmania donovani, UniProt A6N857). In words: Inhibition of LdGSK-3 with Kinase Glo. As to conditions: for IC50: read-out: LdGSK-3 IC50. The experiment is classed as biochemical. (Kinase-Glo reads ATP consumption through a luciferase reaction.)

`c1ccc(-c2nc(=NCCN3CCOCC3)sn2-c2ccccc2)cc1`: the “antiparasitic activities (in words)” value in experiment [1] (tested form: 2HBr) and in experiment [2] (tested form: 2HBr) was “nil antiparasitic activities” throughout. Also, the EC50 (as a rule, the concentration needed to bring the measured effect to its halfway point) in experiment [1] (Table 1, tested form: 2HBr) was above 25 µM; in experiment [2] (Table 1, tested form: 2HBr), above 50 µM. For the same compound, the IC50 (usually the concentration that inhibits the measured activity by half) at LdGSK-3 (Table 1, tested form: 2HBr) stood at 0.24 µM. Also, on LdGSK-3 (tested form: 2HBr), the “LdGSK-3 inhibition (in words)” value is given as “submicromolar concentrations”.

For `CC(=O)C1=C(c2cn(C)c3ccccc23)C(=O)NC1=O`, the values for the EC50 in experiment [1] (Table 1) and in experiment [2] (Table 1) were above 50 µM and above 25 µM, respectively. The “LdGSK-3 inhibition (in words)” value at LdGSK-3 was “did not inhibit LdGSK-3 activity”. The LdGSK-3 % inhibition at LdGSK-3 (Table 1, @10 μM) is listed as below 20%@10 μM.

As to `CCCCCCCCCCCC(=O)NNC(=O)c1c(O)c2ccccc2n(CC)c1=O`, the EC50 in experiment [1] (Table 1) is above 50 µM; in experiment [2] (Table 1) it was 3.6 µM. For the same compound, the “LdGSK-3 inhibition (in words)” value at LdGSK-3 is “inactive”. The compound also showed a LdGSK-3 % inhibition on LdGSK-3 (Table 1, @10 μM) below 20%@10 μM.

Consider `O=C(CCl)c1scc(Br)c1Br`, for which the EC50 came to 4.6 µM in experiment [1] (Table 1) and 2.2 µM in experiment [2] (Table 1). Besides, on LdGSK-3 (Table 1), the half-inhibitory concentration (IC50) worked out at 1.8 µM.

For the compound `OCCN=c1nc(-c2ccccc2)n(-c2ccccc2)s1`, the “antiparasitic activities (in words)” value in experiment [1] (tested form: HBr) and in experiment [2] (tested form: HBr) was “nil antiparasitic activities” in each case. Further, the EC50 in experiment [1] (Table 1, tested form: HBr) was above 25 µM; in experiment [2] (Table 1, tested form: HBr), above 50 µM. For the same compound, on LdGSK-3 (Table 1, tested form: HBr), the IC50 was 0.17 µM. For the same compound, the “LdGSK-3 inhibition (in words)” value on LdGSK-3 (tested form: HBr) is given as “submicromolar concentrations”.

As for `Cn1sc(=O)n(Cc2ccccc2)c1=O`, the EC50 in experiment [1] (Table 1) is 10.9 µM. The half-inhibitory concentration (IC50) on LdGSK-3 (Table 1) worked out at 1.1 µM.

As to `Cn1cc(C2=C(C(=O)CBr)C(=O)NC2=O)c2ccccc21`, the EC50 in experiment [1] (Table 1) was above 50 µM; in experiment [2] (Table 1), 6.5 µM. Also, the IC50 on LdGSK-3 (Table 1) stood at 1.6 µM.

Consider `O=C(CBr)c1scc(Br)c1Br`, for which the EC50 in experiment [1] (Table S1) and in experiment [2] (Table S1) was above 50 µM throughout. The compound further returned a LdGSK-3 % inhibition at LdGSK-3 (Table S1, @10 µM) of 74.3%.
